Results on 3 substances are retold here after article PMC7072297, “Structural Determinants Responsible for the Preferential Insertion of Ribonucleotides by Bacterial NHEJ PolDom” (Biomolecules, 2020).

Data set [1] deals with Nc1nc2c(ncn2[C@@H]2O[C@H](COP(=O)(O)OP(=O)(O)OP(=O)(O)O)[C@@H](O)[C@H]2O)c(=O)[nH]1. The data set is described as follows: purified protein. Particulars: 200 nM primer/template DNA (Cy5P/T29(A)), misinsertion opposite template dA, 5 mM MnCl2, pH 7.5, 30 °C.
The subject of data set [2] is O=c1ccn([C@@H]2O[C@H](COP(=O)(O)OP(=O)(O)OP(=O)(O)O)[C@@H](O)[C@H]2O)c(=O)[nH]1. The data set is described as follows: purified protein. Particulars: 200 nM primer/template DNA (Cy5P/T29(A)), insertion opposite template dA, 5 mM MnCl2, pH 7.5, 30 °C.

Take “Pa-PolDom (Pseudomonas aeruginosa PAO1; H651A)”: the values for the Km in data set [1] and in data set [2] were 2385 ± 200 nM and 117 ± 10 nM, respectively. “Pa-PolDom (Pseudomonas aeruginosa PAO1; S768A)”: the Km in data set [1] is recorded as 890 ± 66 nM. As to “Pa-PolDom (Pseudomonas aeruginosa PAO1; S768Y)”, in data set [1], the Km was 865 ± 70 nM and the kcat worked out at 0.49 ± 0.01 s⁻¹.
